Patent US7947717B2 (priority 2008, dated 2011)

By UniProt entry, the sequences of proteins in these tests, tags left out. Residues count along the entry.
UniProt P15917, 34-809 limits assumed: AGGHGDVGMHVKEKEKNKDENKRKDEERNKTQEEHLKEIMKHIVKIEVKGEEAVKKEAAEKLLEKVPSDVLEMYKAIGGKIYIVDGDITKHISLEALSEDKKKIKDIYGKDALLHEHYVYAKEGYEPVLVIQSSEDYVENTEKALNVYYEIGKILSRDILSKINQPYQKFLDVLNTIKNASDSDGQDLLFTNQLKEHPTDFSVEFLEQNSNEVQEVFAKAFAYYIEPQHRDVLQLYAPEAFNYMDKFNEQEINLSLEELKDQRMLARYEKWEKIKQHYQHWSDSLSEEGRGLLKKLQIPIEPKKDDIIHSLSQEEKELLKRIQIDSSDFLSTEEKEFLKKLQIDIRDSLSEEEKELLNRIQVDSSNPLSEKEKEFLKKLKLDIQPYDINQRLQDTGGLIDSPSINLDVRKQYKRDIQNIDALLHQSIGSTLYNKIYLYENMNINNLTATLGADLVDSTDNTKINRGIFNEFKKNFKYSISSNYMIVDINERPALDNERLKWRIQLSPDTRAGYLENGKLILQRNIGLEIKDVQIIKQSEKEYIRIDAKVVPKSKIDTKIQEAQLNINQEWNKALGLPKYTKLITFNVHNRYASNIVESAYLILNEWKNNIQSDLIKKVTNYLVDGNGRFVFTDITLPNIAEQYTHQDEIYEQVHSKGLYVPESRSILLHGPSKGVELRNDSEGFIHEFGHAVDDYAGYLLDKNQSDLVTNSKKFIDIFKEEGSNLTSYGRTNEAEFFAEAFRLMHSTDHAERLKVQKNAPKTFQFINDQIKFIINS

Target: lethal factor (LF) (Bacillus anthracis, UniProt P15917)
Assay: biochemical

Compound: O=C(O)CN1C(=O)C(=Cc2cc(-c3ccc(Cl)cc3)on2)SC1=S [Compound 24, 2-(5-((5-(4-chlorophenyl)isoxazol-3-yl)methylene)-4-oxo-2-thioxothiazolidin-3-yl)acetic acid]
- IC50: 5.2 µM
